Pooled drug test results. Numbers come from NIAID ChemDB, via PubChem.

Common to all: host cell toxicity; cell line: C8166; endpoint: CC50

CCn: concentration that lowers growth or viability of the cells by n%. An empty or dashed field is not shown. Conditions beyond the fields shown may differ between rows.

SMILES	method	result
Cc1cn([C@H]2C[C@H](N=[N+]=[N-])[C@@H](COP(=O)(N[C@@H](C)C(=O)OCc3ccccc3)OCC(Cl)(Cl)Cl)O2)c(=O)[nH]c1=O	-	<100 µM
C=C(C)[C@@]12OC3(c4ccccc4)O[C@@H]1[C@@H]1[C@@H]4O[C@]4(CO)[C@@H](O)[C@]4(O)C(=O)C(C)=C[C@H]4[C@@]1(O3)[C@H](C)[C@H]2OC(=O)C(C)C	MTT	>200 µM
COC1=C(OC)C(=O)C23C(=C1)C[C@@H](C)[C@]2(C)[C@@H](O)c1cc2c(c(OC)c13)OCO2	MTT	>200 µg/mL
O=C1c2c(O)cc(O[C@@H]3C[C@@H](O)[C@H](O)[C@@H](CO)O3)cc2O[C@H](c2ccc(O)c(O)c2)[C@H]1O	-	350 µg/mL
C[C@@H]1O[C@@H](O[C@@H]2[C@@H](O)[C@H](OCCc3ccc(O)c(O)c3)O[C@H](CO)[C@H]2OC(=O)/C=C/c2ccc(O)c(O)c2)[C@H](O)[C@H](O)[C@H]1O	MTT	154.8 µg/mL
Cc1cn([C@@H]2C[C@@H](N=[N+]=[N-])[C@H](COP(=O)(OCc3ccc(OC(=O)C(C)(C)C)cc3)OC[C@H]3O[C@@H](n4cc(C)c(=O)[nH]c4=O)C[C@@H]3N=[N+]=[N-])O2)c(=O)[nH]c1=O	-	20 µM
CC(=O)OC(C1C=C(C)C(=O)O1)C(C)C1C2C3(O)OC4(CCC12C)C(=CCC1C(C)(C)OC2CC(=O)OC21C4O)C3=O	MTT	92.3 µg/mL
CC(=O)Oc1ccc(COP(=O)(OC[C@@H]2C[C@@H](N=[N+]=[N-])[C@H](n3cc(C)c(=O)[nH]c3=O)O2)OC[C@H]2O[C@@H](n3cc(C)c(=O)[nH]c3=O)C[C@@H]2N=[N+]=[N-])cc1	-	125 µM
CC(C)[C@H](NC(=O)c1ccc2ccccc2n1)C(=O)N[C@@H](Cc1ccccc1)[C@H](O)CN1CC[C@@H](OCc2ccncc2)C[C@H]1C(=O)NC(C)(C)C	-	32 µM
C=C(C)[C@]12C[C@@H](C)[C@@]34OC(c5ccccc5)(O[C@@H]1[C@@H]3[C@@H]1O[C@]1(CO)[C@@H](O)[C@@]1(O)[C@H]4C[C@H](C)[C@@H]1OC(=O)/C=C/C=C/C=C/CCC)O2	MTT	91.3 µM
OC[C@H]1O[C@@H](Oc2cc(O)cc3c2C[C@@H](O)[C@@H](c2ccc(O)c(O)c2)O3)[C@H](O)[C@@H](O)[C@@H]1O	MTT	182 µg/mL
C[C@@H]1O[C@@H](O[C@@H]2[C@@H](O)[C@H](OCCc3ccc(O)c(O)c3)O[C@H](COC(=O)/C=C/c3ccc(O)c(O)c3)[C@H]2O)[C@H](O)[C@H](O)[C@H]1O	MTT	72.7 µg/mL
O=c1c(O)c(-c2ccc(O)c(O)c2)oc2cc(OC3OC(CO)C(O)C(O)C3O)cc(O)c12	-	>250 µg/mL
Cc1ccc2c(c1)n(CCNC(=S)Nc1ccc(Br)cn1)c(=O)c1cccn12	-	14 µM
COC1=C(OC)C(=O)C23COc4c5c(cc(c42)[C@@H](OC(=O)c2ccccc2)[C@@H](C)[C@@H](C)CC3=C1)OCO5	MTT	69.3 µg/mL
C=C(C)[C@]12C[C@@H](C)[C@@]34OC(c5ccccc5)(O[C@@H]1[C@@H]3[C@@H]1O[C@]1(CO)[C@@H](O)[C@@]1(O)[C@H]4C[C@H](C)[C@@H]1OC(=O)c1ccccc1)O2	MTT	31.8 µM
Cc1cn(C2CC(N=[N+]=[N-])C(COC(=O)c3cn(C4CC4)c4cc(N5CCN(C(=O)OCc6ccccc6)CC5)c(F)cc4c3=O)O2)c(=O)[nH]c1=O	MTT	130 µM
COc1cc(/C=C/C(=O)O[C@@H]2Cc3c(O)cc(O)cc3O[C@@H]2c2ccc(O)c(O)c2)ccc1O	MTT	20.46 µg/mL
O=C(O)C1(O)C[C@@H](O)C(O)[C@H](O)C1	-	>250 µg/mL
S=C(Nc1cccc2ccccc12)Nn1c(-c2ccc(Br)cc2)c[nH]c1=S	MTT	48.79 µM
C=C(C)[C@]12C[C@@H](C)[C@@]34OC(c5ccccc5)(O[C@@H]1[C@@H]3[C@@H]1O[C@]1(CO)[C@@H](O)[C@]1(O)C(=O)C(C)=C[C@H]14)O2	MTT	41 µM
OCCc1ccc(O)c(O[C@@H]2O[C@H](CO)[C@@H](O)[C@H](O)[C@H]2O)c1	MTT	52.5 µg/mL
Oc1cc(O)c2c(c1)O[C@H](c1ccc(O)c(O)c1)[C@H](O)C2	MTT	>200 µg/mL
COC1=C(OC)C(=O)C23COc4c5c(cc(c42)[C@@H](OC(C)=O)[C@@H](C)[C@@H](C)CC3=C1)OCO5	MTT	99.7 µg/mL
OC[C@H]1O[C@@H](Oc2cc(O)c3c(c2)O[C@H](c2ccc(O)c(O)c2)[C@@H](O)C3)[C@H](O)[C@@H](O)[C@@H]1O	MTT	166 µg/mL
CC(C)(C)NC(=O)[C@@H]1C[C@@H]2CCCC[C@@H]2CN1C[C@@H](O)[C@H](Cc1ccccc1)NC(=O)[C@H](CC(N)=O)NC(=O)c1ccc2ccccc2n1	MTT	90 µM
Cc1cn([C@H]2C[C@H](N=[N+]=[N-])[C@@H](CO)O2)c(=O)[nH]c1=O	-	>1000 µM
Cc1cn(C2CC(N=[N+]=[N-])C(COC(=O)c3cn(C4CC4)c4c(F)c(N5CC(C)N(C(=O)OCc6ccccc6)C(C)C5NC(=O)OCc5ccccc5)c(F)cc4c3=O)O2)c(=O)[nH]c1=O	MTT	>220 µM
C=C(C)[C@@]12OC3(/C=C/C=C/CCCCC)O[C@@H]1[C@@H]1[C@@H]4O[C@]4(CO)[C@@H](O)[C@]4(O)C(=O)C(C)=C[C@H]4[C@@]1(O3)[C@H](C)[C@H]2OC(=O)CC	MTT	>200 µM
C=C(C)C1Oc2ccc(C(C)=O)cc2C1O	-	50 µg/mL
Oc1cc(O)c2c(c1)O[C@H](c1ccc(O)c(O)c1)[C@H](O)C2	MTT	>200 µg/mL
O=c1c2cccn2c2cccc(F)c2n1CCNC(=S)Nc1ccc(Br)cn1	-	200 µM
C=C1C([C@@H](C)[C@H]2CC=C(C)C(=O)O2)=CC[C@]2(C)[C@H]1C[C@]1(O)C=C3C=CC(=O)OC(C)(C)[C@@H]3[C@H](OC(C)=O)C[C@@H]21	MTT	7.3 µg/mL
O=C(c1ccccc1)c1c(O)cc(O)cc1O[C@@H]1O[C@H](CO)[C@@H](O)[C@H](O)[C@H]1O	MTT	>200 µg/mL
CCCC(=O)Oc1ccc(COP(=O)(OC[C@@H]2O[C@H](n3cc(C)c(=O)[nH]c3=O)C[C@H]2N=[N+]=[N-])OC[C@H]2O[C@@H](n3cc(C)c(=O)[nH]c3=O)C[C@@H]2N=[N+]=[N-])cc1	-	75 µM
O=C1c2c(O)cc(O)c(O)c2O[C@H](c2ccc(O)cc2)[C@H]1O	-	>100 µg/mL
O=C(/C=C/c1ccc(O)cc1)OC[C@H]1O[C@@H](Oc2c(-c3ccc(O)cc3)oc3cc(O)cc(O)c3c2=O)[C@H](O)[C@@H](O)[C@@H]1O	-	>200 µg/mL
Cc1nc2ccccc2n(CC(=O)NNC(=O)c2ccc(Cl)cc2)c1=O	MTT	169 µM
O=c1c(O)c(-c2ccc(O)cc2)oc2cc(O)cc(O)c12	-	70 µg/mL
[N-]=[N+]=NC1CC(n2cc(CN3CCN(c4cc5c(cc4F)c(=O)c(C(=O)O)cn5C4CC4)CC3)c(=O)[nH]c2=O)OC1CO	MTT	>335 µM
COc1cc(/C=C/C(=O)O)cc(OC)c1O	-	200 µg/mL
Cc1cn([C@H]2C[C@H](N=[N+]=[N-])[C@@H](CO)O2)c(=O)[nH]c1=O	-	5 µM
Cc1cn([C@H]2C[C@H](N=[N+]=[N-])[C@@H](CO)O2)c(=O)[nH]c1=O	-	>1000 µM
C=C(C)[C@@]12OC3(c4ccccc4)O[C@@H]1[C@@H]1[C@@H]4O[C@]4(CO)[C@@H](O)[C@]4(O)C(=O)C(C)=C[C@H]4[C@@]1(O3)[C@H](C)[C@H]2OC(=O)/C=C/c1ccc(O)c(OC)c1	MTT	43.4 µM
O=C(O[C@@H]1Cc2c(O)cc(O)cc2O[C@@H]1c1ccc(O)c(O)c1)c1cc(O)c(O)c(O)c1	MTT	185 µg/mL
O=C(/C=C/c1ccc(O)c(O)c1)O[C@H]1[C@H](O)C[C@](O)(C(=O)O)C[C@H]1OC(=O)/C=C/c1ccc(O)c(O)c1	-	40 µg/mL
O=C(/C=C/c1ccc(O)c(O)c1)OC1C[C@@](O)(C(=O)O)C[C@H](O)[C@@H]1O	MTT	>200 µg/mL
O=C(C=Cc1ccc(O)c(O)c1)O[C@@H]1C[C@](O)(C(=O)O)C[C@@H](O)[C@H]1O	-	>500 µg/mL
COc1cc(O)ccc1O[C@@H]1O[C@H](CO)[C@@H](O)[C@H](O)[C@H]1O	MTT	>200 µg/mL
CCn1cc(C(=O)O)c(=O)c2cc(F)c(N3CCN(Cc4cn(C5CC(N=[N+]=[N-])C(CO)O5)c(=O)[nH]c4=O)CC3)cc21	MTT	>342 µM
O=C(/C=C/c1ccc(O)c(O)c1)OC1[C@H](OC(=O)/C=C/c2ccc(O)c(O)c2)CC(O)(C(=O)O)C[C@H]1OC(=O)/C=C/c1ccc(O)c(O)c1	-	100 µg/mL
Cc1cn([C@H]2C[C@H](N=[N+]=[N-])[C@@H](CO)O2)c(=O)[nH]c1=O	-	>100 µM
Oc1cc(O)c2c(c1)O[C@H](c1ccc(O)c(O)c1)[C@@H](O)C2	MTT	>200 µg/mL
Cc1ccccc1NC(=S)Nn1c(-c2ccc(Cl)cc2)c[nH]c1=S	MTT	59.23 µM
COC(=O)c1cc(O)c(OS(=O)(=O)[O-])c(OC)c1.[Na+]	MTT	>200 µg/mL
C/C=C(/C)C(=O)O[C@H]1c2cc3c(c4c2C2(CO4)C(=O)C(OC)=C(OC)C=C2C[C@@H](C)[C@H]1C)OCO3	MTT	82.1 µg/mL
CC(=O)c1ccc(O)c(CC(O)C(C)(C)O)c1	-	8 µg/mL
Cc1cn(C2CC(N=[N+]=[N-])C(COC(=O)c3cn4c5c(c(N6CCN(C)CC6)c(F)cc5c3=O)OCC4C)O2)c(=O)[nH]c1=O	MTT	>328 µM
COc1ccc(-c2c[nH]c(=S)n2NC(=S)Nc2ccccc2C)cc1	MTT	20.91 µM
OCCc1ccc(O)c(O)c1	MTT	169.5 µg/mL
O=C1C[C@@H](c2ccc(O)cc2)Oc2cc(O[C@@H]3C[C@@H](O)[C@H](O)[C@@H](CO)O3)cc(O)c21	-	>100 µg/mL
CC[C@]1(c2ccccc2)Oc2cccnc2-n2cccc2C1=O	-	53.9 µM
CCn1cc(C(=O)OCC2OC(n3cc(C)c(=O)[nH]c3=O)CC2N=[N+]=[N-])c(=O)c2cc(F)c(N3CCN(C(=O)OCc4ccccc4)C(C)C3)c(F)c21	MTT	>272 µM
C=C(C)[C@@]1(OC(=O)c2ccccc2)[C@H](OC(C)=O)[C@@H]2[C@H](OC(C)=O)[C@@]3(C)O[C@@]4([C@@H]3O)[C@@H](OC(=O)c3ccccc3)[C@@H](C)C[C@H]4[C@@]2(O)[C@H](C)[C@@H]1OC(C)=O	MTT	>200 µM